Mutational interference map of HIV-1 RNA dimerization

Values reported by Ye et al. 2022 (doi:10.1038/s41594-022-00746-2).

Sequence of the HIV-1 NL4-3 5' RNA, positions 1 to 437, as numbered in the source:
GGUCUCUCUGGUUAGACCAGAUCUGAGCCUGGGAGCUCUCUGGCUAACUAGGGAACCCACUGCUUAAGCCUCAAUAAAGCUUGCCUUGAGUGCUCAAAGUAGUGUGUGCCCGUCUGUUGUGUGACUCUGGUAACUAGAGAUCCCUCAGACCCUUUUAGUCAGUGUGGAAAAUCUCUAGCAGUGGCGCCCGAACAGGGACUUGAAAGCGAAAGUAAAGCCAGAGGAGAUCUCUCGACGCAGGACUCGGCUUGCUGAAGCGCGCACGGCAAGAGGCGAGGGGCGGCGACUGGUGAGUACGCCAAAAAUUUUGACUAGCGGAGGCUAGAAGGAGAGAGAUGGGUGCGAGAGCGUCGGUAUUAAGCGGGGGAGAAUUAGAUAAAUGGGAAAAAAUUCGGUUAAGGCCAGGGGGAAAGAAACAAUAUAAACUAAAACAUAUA

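Mutant RNA libraries with 1G, 2G or 3G starts, with or without cap, were folded at 37 °C for 30 min. High salt was 300 mM KCl and 5 mM MgCl2, low salt 40 mM KCl and 0.1 mM MgCl2; monomer and dimer were parted on a native gel. Kdimer compares mutation frequencies in monomer and dimer, corrected for sequencing errors.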

Scale: median log2 Kdimer over the changes at a position; positive = changes inhibit dimerization, negative = changes enhance it. One numbering serves 1G, 2G and 3G. A position is written with its base where known. Bases beyond 437 are not listed in the source.

| position | domain | 1G capped low-salt | 3G uncapped low-salt |
|---|---|---|---|
| G33 | TAR | -0.44 | -0.01 |
| G43 | TAR | -0.22 | -0.13 |
| C58 | PolyA | 0.33 | 0.11 |
| C72 | PolyA | -0.16 | 0.04 |
| U82 | PolyA | 0.02 | 0.20 |
| A89 | PolyA | 0.31 | 0.35 |
| C93 | PolyA | -0.18 | -0.26 |
| A101 | PolyA | 0.43 | 0.20 |
| U103 | PolyA | 0.21 | 0.14 |
| U107 | U5 | 0.15 | 1.13 |
| C111 | U5 | 0.90 | 1.51 |
| U118 | none | -0.12 | 0.08 |
| A133 | PBS | 0.11 | 0.20 |
| U155 | PBS | -0.03 | 0.05 |
| U165 | PBS | -0.02 | 0.03 |
| A177 | PBS | -0.71 | -0.43 |
| C179 | PBS | -0.33 | -0.36 |
| A211 | PBS | -0.31 | -0.46 |
| C219 | antiPAS | 0.46 | 1.02 |
| A239 | none | -0.36 | -0.26 |
| U249 | SL1 | 1.61 | 1.86 |
| C252 | SL1 | 3.09 | 3.61 |
| G259 | SL1 | 3.05 | 3.90 |
| A276 | SL1 | 2.81 | 3.14 |
| G280 | none | -0.43 | -0.52 |
| G289 | SL2 | 0.16 | 0.16 |
| A293 | SL2 | -0.21 | -0.46 |
| G294 | SL2 | -0.64 | -0.90 |
| U295 | SL2 | -0.66 | -0.46 |
| C300 | none | -0.63 | -0.52 |
| A304 | none | 0.04 | 0.08 |
| G318 | SL3 | -0.12 | -0.12 |
| U323 | SL3 | 0.78 | 0.47 |
| A324 | SL3 | 0.67 | 0.80 |
| A327 | none | 0.41 | 0.22 |
| G331 | none | -0.11 | 0.11 |
| G333 | AUG | -0.30 | -0.28 |
| U337 | AUG | -0.15 | 0.97 |
| A359 | none | -0.16 | 0.25 |
| G369 | none | 0.12 | 0.16 |
| U392 | none | -0.15 | 0.01 |
| G406 | none | -0.04 | 0.11 |
| A431 | none | -0.08 | -0.06 |
| 445 | none | 0.08 | -0.14 |
| 464 | none | -0.14 | 0.05 |
| 465 | none | -0.06 | -0.17 |
| 479 | none | 0.03 | 0.06 |
| 483 | none | -0.02 | -0.08 |
| 486 | none | -0.05 | 0.00 |
| 487 | none | -0.03 | 0.05 |
| 508 | none | -0.07 | -0.07 |
| 513 | none | 0.09 | -0.08 |